Measured values from several laboratories, pooled; numbers as filed in NIAID ChemDB.

Common to all: toxicity to cultured cells; cell line: MT-4; method: MTT; read-out: CC50

CCn: concentration that lowers growth or viability of the cells by n%. Conditions beyond the fields shown may differ between rows.

structure	result
Cc1cn([C@H]2C[C@H](N=[N+]=[N-])[C@@H](CO)O2)c(=O)[nH]c1=O	8.3 µg/mL
COc1cc(OC2O[C@H](CO)[C@@H](O)[C@H](O)[C@H]2O)cc(OC)c1OC	>200 µM
COCn1c(C(=O)c2cccc3ccccc23)c(C(C)C)c(=O)[nH]c1=O	42.98 µM
Cn1c(=O)cc(Oc2nc(Nc3ccc(C#N)cc3)nc(Nc3nc4ccc(F)cc4s3)n2)c2ccccc21	2.26 µg/mL
CCOCn1c2c(c(=O)[nH]c1=O)Nc1ccc(C)cc1S2	9.5 µg/mL
O=c1[nH]c(=S)[nH]c2nc(-c3ccc(F)cc3)c(-c3ccc(F)cc3)nc12	56.9 µg/mL
O=[N+]([O-])c1ccccc1/C=N/c1nc2ccccc2s1	25 µM
Cc1cc(C#N)cc(C)c1Oc1nc(N/N=C/C2CCN(Cc3ccc([N+](=O)[O-])cc3)CC2)nc2ccsc12	13.4 µM
CCOCn1c(Sc2ccc3ccccc3c2N)c(CC)c(=O)[nH]c1=O	195 µM
Cn1c(=O)cc(Oc2nc(Nc3ccc(C#N)cc3)nc(Nc3nc4ccc(Br)cc4s3)n2)c2ccccc21	14.5 µg/mL
CCOc1ccc2nc(/N=C/c3ccc(O)cc3)sc2c1	≥100 µM
Cc1cc(C#N)cc(C)c1Oc1nc(N/N=C/c2ccc(C#N)cc2F)nc2ccsc12	182 µM
O=c1[nH]c(=O)n(COCc2ccccc2)c2c1Nc1ccc(Cl)cc1S2	3 µg/mL
Cc1cc(C#N)cc(C)c1Oc1nc(N/N=C/C2CCN(Cc3ccccn3)CC2)nc2ccsc12	4.18 µM
CC(C)(C)NC(=O)[C@@H]1CN(Cc2cccnc2)CCN1C[C@@H](O)C[C@@H](Cc1ccccc1)C(=O)N[C@H]1c2ccccc2C[C@H]1OC(=O)CCCCO[C@H]1O[C@H](CO)[C@@H](O)[C@H](O)[C@@H]1O	>1000 µM
Cc1cc(C#N)cc(C)c1Oc1nc(N/N=C/C2CCN(Cc3ccc(S(N)(=O)=O)cc3)CC2)nc2ccsc12	3.6 µM
Cc1cc(O)cc(O)c1	188 µM
Cc1cc(C#N)cc(C)c1Oc1nc(N/N=C/C2CCN(Cc3ccc(S(=O)(=O)N4CCOCC4)cc3)CC2)nc2ccsc12	14.5 µM
Cn1c(=O)cc(Oc2nc(Nc3ccc(C#N)cc3)nc(Nc3nc4ccc(Cl)cc4s3)n2)c2ccccc21	2.19 µg/mL
Cc1cn([C@H]2C[C@H](N=[N+]=[N-])[C@@H](CO)O2)c(=O)[nH]c1=O	3.7 µM
Cc1cn([C@H]2C=C[C@@H](CO)O2)c(=O)[nH]c1=O	146 µM
Cc1cn([C@H]2C[C@@H](CO)[C@H](O)C2)c(=O)[nH]c1=O	160 µg/mL
COc1ccc(S(=O)(=O)O)cc1N=Nc1c(S(=O)(=O)O)cc2cc(Nc3nc(Nc4ccccc4)nc(Nc4cc(C)c(N=Nc5cc(S(=O)(=O)O)cc6cc(S(=O)(=O)O)cc(O)c56)cc4OC)n3)ccc2c1O	>50 µg/mL
CCC(CCC(C)C1CCC2C3C[C@@H](O)[C@@]4(O)C[C@@H](O)CCC4(C)C3CCC12C)C(C)C	>1000 µg/mL
Cc1cn([C@@H]2C[C@H](CO)[C@@H](O)C2)c(=O)[nH]c1=O	0.07 µg/mL
Cc1nc2[nH]c(=S)[nH]c(=O)c2nc1C	>125 µg/mL
COc1cc([C@@H]2c3c(cc(OC)c(O)c3OC)C[C@H](CO)[C@H]2CO)cc(OC)c1O	>200 µM
COc1ccc(CSc2nc(Cc3c(Cl)cccc3Cl)c(C)c(=O)[nH]2)cc1OC	>55 µM
Cc1cc(COCCC#N)cc(C)c1Nc1ccnc(Nc2ccc(C#N)cc2)n1	10 µM
COC(=O)C1=C[C@H](O)[C@@H](O)[C@H](O)C1	>200 µM
Cc1c(Cc2c(Cl)cccc2Cl)nc(SCc2ccc(Br)cc2)[nH]c1=O	13 µM
Cc1cccc(COCn2c(Sc3cccc4ccccc34)c(C(C)C)c(=O)[nH]c2=O)c1	29.6 µM
CC(C)Nc1cccnc1N1CCN(C(=O)c2cc3cc(NS(C)(=O)=O)ccc3[nH]2)CC1	>2 µg/mL
C#CCn1c(C(=O)c2cccc3ccccc23)c(CC)c(=O)[nH]c1=O	4.82 µM
COP(=O)(O)C[C@H](NP(=O)(O)OC[C@@H]1C=C[C@H](n2cc(C)c(=O)[nH]c2=O)O1)C(=O)O	146 µM
CC(C)c1c(C(=O)c2cccc3ccccc23)n(C/C=C/c2ccccc2)c(=O)[nH]c1=O	21.23 µM
Cc1cn([C@H]2C[C@H](N=[N+]=[N-])[C@@H](CO)O2)c(=O)[nH]c1=O	>25 µg/mL
Cc1cc(C#N)cc(C)c1Oc1nc(N/N=C/c2ccc(C#N)cc2)nc2ccsc12	183 µM
O=c1[nH]cnc2c1ncn2[C@H]1CC[C@@H](CO)O1	>100 µg/mL
Cc1cc(C)c(Oc2cc(Nc3ccc(C#N)cc3)ncc2C(=O)NCc2cn(CC(=O)N3CCCC3)nn2)c(C)c1	58.09 µM
CC(C)c1c(C(=O)c2cccc3ccccc23)n(C/C=C/c2ccccc2)c(=O)n(C/C=C/c2ccccc2)c1=O	≥129 µM
Cc1cn([C@H]2C[C@H](N=[N+]=[N-])[C@@H](CO)O2)c(=O)[nH]c1=O	113 µM
CC(C)=CCN1Cc2cc(Cl)cc3[nH]c(=S)n(c23)C[C@@H]1C	29 µg/mL
Nc1ncnc2c1ncn2CCOCP(=O)(O)O	187 µM
Cc1c(Cc2c(Cl)cccc2Cl)nc(SCc2cccc(F)c2)[nH]c1=O	>61 µM
Nc1ccn([C@H]2CC[C@@H](CO)O2)c(=O)n1	1.6 µg/mL
Nc1ccn([C@H]2CC[C@@H](CO)O2)c(=O)n1	>20 µg/mL
CCOCn1c(Sc2ccc3ccccc3c2)c(CC)c(=O)[nH]c1=O	42.19 µM
O=c1[nH]cc([C@@H]2C[C@H](O)[C@H](CO)[NH2+]2)c(=O)[nH]1	>20 µM
CCc1c(C(=O)c2cccc3ccccc23)n(CC(=O)OC)c(=O)[nH]c1=O	168 µM
Cc1cc(/C(Cl)=C\C#N)cc(C)c1Nc1ccnc(Nc2ccc(C#N)cc2)n1	30 µM
O=[N+]([O-])c1ccoc1C=Nc1nsc2ccccc12	4 µM
Cn1c(=O)cc(Oc2nc(Nc3ccc(C#N)cc3)nc(Nc3ccccn3)n2)c2ccccc21	≥74.1 µg/mL
Nc1ncnc2c1ncn2CCOCP(=O)(O)O	67 µg/mL
Cc1cc(CC(C)C#N)cc(C)c1Nc1ccnc(Nc2ccc(C#N)cc2)n1	1 µM
Cc1ccc(-c2nc3[nH]c(=S)[nH]c(=O)c3nc2-c2ccc(C)cc2)cc1	12.7 µg/mL
Cc1cn([C@H]2C[C@H](N=[N+]=[N-])[C@@H](CO)O2)c(=O)[nH]c1=O	>7.5 µM
Cc1cc(-c2ccc(C#N)o2)cc(C)c1Nc1ccnc(Nc2ccc(C#N)cc2)n1	10 µM
CC(C)(C)NC(=O)[C@@H]1CN(Cc2cccnc2)CCN1C[C@@H](O)C[C@@H](Cc1ccccc1)C(=O)N[C@H]1c2ccccc2C[C@H]1O	>1000 µM
Cn1c(=O)cc(Oc2nc(Nc3ccc(C#N)cc3)nc(Sc3nc4ccccc4s3)n2)c2ccccc21	72.78 µg/mL
Cc1cn([C@H]2C[C@H](N=[N+]=[N-])[C@@H](CO)O2)c(=O)[nH]c1=O	>1 µM
c1cc(CN2CCCNCCNCCCNCC2)ccc1CN1CCCNCCNCCCNCC1	>10 µM
CC(C)(C)NC(=O)[C@@H]1C[C@@H]2CCCC[C@@H]2CN1C[C@@H](OC(=O)CCCCO[C@H]1O[C@H](CO)[C@@H](O)[C@H](O)[C@@H]1O)[C@H](Cc1ccccc1)NC(=O)[C@H](CC(N)=O)NC(=O)c1ccc2ccccc2n1	>50 µM
Oc1cccc(CN(CCN2CCCCC2)CC2CCCN(C3CCCC3)C2)c1	58 µM
Cc1cn([C@H]2C=C[C@@H](COP(=O)(O)O)O2)c(=O)[nH]c1=O	187 µM

9 of the rows above, restated:

structure | result
Cc1cn([C@H]2C[C@H](N=[N+]=[N-])[C@@H](CO)O2)c(=O)[nH]c1=O | 113 µM
CCOCn1c(Sc2ccc3ccccc3c2N)c(CC)c(=O)[nH]c1=O | 195 µM
Cc1cc(C)c(Oc2cc(Nc3ccc(C#N)cc3)ncc2C(=O)NCc2cn(CC(=O)N3CCCC3)nn2)c(C)c1 | 58.09 µM
O=[N+]([O-])c1ccccc1/C=N/c1nc2ccccc2s1 | 25 µM
Cc1cc(CC(C)C#N)cc(C)c1Nc1ccnc(Nc2ccc(C#N)cc2)n1 | 1 µM
O=c1[nH]cnc2c1ncn2[C@H]1CC[C@@H](CO)O1 | >100 µg/mL
Cc1cccc(COCn2c(Sc3cccc4ccccc34)c(C(C)C)c(=O)[nH]c2=O)c1 | 29.6 µM
CC(C)(C)NC(=O)[C@@H]1CN(Cc2cccnc2)CCN1C[C@@H](O)C[C@@H](Cc1ccccc1)C(=O)N[C@H]1c2ccccc2C[C@H]1OC(=O)CCCCO[C@H]1O[C@H](CO)[C@@H](O)[C@H](O)[C@@H]1O | >1000 µM
CC(C)=CCN1Cc2cc(Cl)cc3[nH]c(=S)n(c23)C[C@@H]1C | 29 µg/mL